Results of unrelated studies side by side (data: NIAID ChemDB).

All rows: growth or infection tests; species: Herpes simplex virus 2; method: cytopathic effect; endpoint: EC50

An empty or dashed field is not shown. ECn: concentration that inhibits the pathogen or its effect by n%. Conditions beyond the fields shown may differ between rows.

SMILES | cells | strain | value
O=c1[nH]c(=O)n([C@H]2C[C@@H](CO)[C@H](O)C2)cc1I | PRK | G | 70 µg/mL
CCCCCC#Cc1cn(S(=O)(=O)c2ccc(C)cc2)c(=O)[nH]c1=O | HEL | G | >40 µM
Nc1ncnc2c1ncn2[C@H]1OC[C@@H](CO)C1O | E6SM | G | >80 µg/mL
CSCc1cn([C@H]2C[C@H](O)[C@@H](CO)O2)c(=O)[nH]c1=O | PRK | VDX192 | 10 µg/mL
Nc1nc2c(ncn2[C@H]2CC[C@H](O)[C@H]2CO)c(=O)[nH]1 | VERO | MS | 0.8 µg/mL
[N-]=[N+]=N[C@H]1[C@@H](F)[C@H](n2cnc3c(N)ncnc32)O[C@@H]1CO | PRK | G | >200 µg/mL
Nc1nc2c(ncn2[C@@H]2C=C[C@H](CO)[C@@H](O)C2)c(=O)[nH]1 | E6SM | G | 0.05 µg/mL
Nc1ncnc2c1ccn2[C@@H]1C[C@H](O)[C@@H](O)[C@H]1O | E6SM | TYPE G | >400 µg/mL
Cc1cn([C@@H]2OC[C@H](CO)[C@H]2O)c(=O)[nH]c1=O | E6SM | G | >400 µg/mL
Nc1nc(N)c(Cc2ccccc2)c(OCCOCP(=O)(O)O)n1 | E6SM | G | 660 µM
CC(=O)OCCOCn1cnc2c(Cl)nc(N)nc21 | PRK |  | 20 µg/mL
Cc1cn([C@H]2O[C@H](CO)[C@@H](N=[N+]=[N-])[C@H]2F)c(=O)nc1N | PRK | G | >400 µg/mL
N=C(N)CCNC(=O)c1c[nH]c(NC(=O)c2c[nH]c(NC(=O)c3ccc(CC(=O)Nc4c[nH]c(C(=O)Nc5c[nH]c(C(=O)NCCC(=N)N)c5)c4)cc3)c2)c1 | PRK |  | 10 µg/mL
CCCCCCC#Cc1c[nH]c(=O)[nH]c1=O | HEL | G | >200 µM
Nc1nc(=O)n([C@@H]2O[C@H](CO)[C@@H](O)[C@@H]2F)cc1I | PRK | G | <0.03 µg/mL
Nc1nc(Cl)c2c(ncn2[C@@H]2O[C@H](CO)[C@@H](O)[C@H]2O)n1 | VERO | MS | 20 µg/mL
CN(C)c1ncnc2c1ncn2COCCO | PRK |  | >400 µg/mL
C#CCNc1nc(N)nc2c1ncn2/C=C1/C[C@@H]1CO | HFF |  | >370 µM
Nc1nc(Cl)c2ncn(/C=C3/C[C@H]3CO)c2n1 | HFF |  | 76.4 µM
[N-]=[N+]=N[C@@H]1[C@@H](OP(=O)(O)OC[C@H]2O[C@@H](n3cnc4c(N)ncnc43)[C@H](OP(=O)(O)OCCOCn3cnc4c(=O)[nH]c(N)nc43)[C@H]2N=[N+]=[N-])[C@H](n2cnc3c(N)ncnc32)O[C@@H]1CO | PRK | G | 0.7 µg/mL
Nc1ncnc2c1ncn2C=C1CC1CO | HFF |  | 10.6 µM
Nc1nc2c(ncn2COCCO)c(=O)[nH]1 | FS-71 | MS | 0.31 µg/mL
Nc1nc2c(ncn2COCOCP(=O)(O)O)c(=O)[nH]1 | VERO |  | 11 µg/mL
COC(=O)[C@H](C)NP(=O)(OCC1C/C1=C/n1cnc2c(NC3CC3)nc(N)nc21)Oc1ccccc1 | HFF |  | 2.5 µM
O=Cc1cn([C@H]2C[C@H](O)[C@@H](CO)O2)c(=O)[nH]c1=O | PRK | LYONS | 2 µg/mL
N=C(N)CCNC(=O)c1c[nH]c(NC(=O)c2c[nH]c(NC(=O)CCCCCCCC(=O)Nc3c[nH]c(C(=O)Nc4c[nH]c(C(=O)NCCC(=N)N)c4)c3)c2)c1 | PRK |  | 40 µg/mL
O=c1[nH]c(=O)n([C@H]2C[C@H](O)[C@@H](CO)O2)cc1I | PRK | LYONS | 1 µg/mL
Nc1nc(NC2CC2)c2ncn(C=C3CC3CO)c2n1 | HFF |  | 73.4 µM
Nc1nc2c(ncn2COCCO)c(=O)[nH]1 | HFF | F66556 (acyclovir-resistant) | >50 µg/mL
Nc1cc(OCCOCP(=O)(O)O)nc(N)n1 | E6SM | G | 33 µM
Nc1ccn(COCCO)c(=O)n1 | PRK |  | 100 µg/mL
C#Cc1cn(S(=O)(=O)c2ccc(C)cc2)c(=O)[nH]c1=O | HEL | G | >200 µM
O=c1[nH]c(=O)n([C@H]2C[C@H](O)[C@@H](CO)O2)cc1CCCl | HEP-2 | K979 | <3 µg/mL
O=c1[nH]c(=O)n([C@H]2C[C@H](O)[C@@H](CO)O2)cc1/C=C/Br | PRK | LYONS | 7 µg/mL
Nc1nc(=O)n([C@H]2C[C@H](O)[C@@H](CO)O2)cc1/C=C/Br | Primary rabbit kidney cells | LYONS | 9 µg/mL
[N-]=[N+]=NCc1cn([C@H]2C[C@H](O)[C@@H](CO)O2)c(=O)[nH]c1=O | PRK | VCX210 | 1 µg/mL
CCCCCCC#Cc1cn(S(=O)(=O)c2ccc(C)cc2)c(=O)[nH]c1=O | HEL | G | >200 µM
O=c1[nH]c(=O)n([C@H]2C[C@H](O)[C@@H](CO)O2)cc1I | PRK | G | 0.4 µg/mL
Cc1cn([C@@H]2OC[C@H](CO)[C@H]2N=[N+]=[N-])c(=O)[nH]c1=O | E6SM | G | >80 µg/mL
CCc1cn([C@H]2C[C@H](O)[C@@H](CO)O2)c(=O)[nH]c1=O | PRK | 196 | 2 µg/mL
N=C(N)CCNC(=O)c1c[nH]c(NC(=O)c2c[nH]c(NC(=O)CCCCCCC(=O)Nc3c[nH]c(C(=O)Nc4c[nH]c(C(=O)NCCC(=N)N)c4)c3)c2)c1 | PRK |  | 10 µg/mL
Nc1nccc2c1ncn2[C@@H]1C[C@H](CO)[C@@H](O)[C@H]1O |  | Strain G | >400 µg/mL
Nc1nc2c(ncn2COC(CO)CO)c(=O)[nH]1 | HEP-2 | K979 | <0.3 µg/mL
CCCCCCCCCCC#Cc1cn(S(=O)(=O)c2ccc(C)cc2)c(=O)[nH]c1=O | HEL | G | >200 µM
Nc1nc(=O)c(/C=C/Br)cn1[C@H]1C[C@H](O)[C@@H](CO)O1 | PRK | G | 150 µg/mL
CNc1cn([C@H]2C[C@H](O)[C@@H](CO)O2)c(=O)[nH]c1=O | VERO | MS | 32 µg/mL
NC1=NCCN1CC(=O)O | VERO | MS | 12400 µM
Nc1nc(NC2CC2)c2ncn(/C=C3/C[C@@H]3CO)c2n1 | HFF |  | >73.4 µM
COC(=O)[C@H](C)NP(=O)(OC[C@H]1C/C1=C/n1cnc2c(N)nc(N)nc21)Oc1ccccc1 | HFF |  | 21.5 µM
C=CCOc1nc(N)nc2c1ncn2/C=C1/C[C@@H]1CO | HFF |  | >366 µM
Nc1ncnc2c1ncn2[C@@H]1O[C@H](CO)[C@@H](O)[C@H]1OP(=O)(O)OC[C@H]1O[C@@H](n2cnc3c(N)ncnc32)[C@H](OP(=O)(O)OC[C@H]2O[C@@H](n3cc(/C=C/Br)c(=O)[nH]c3=O)C[C@@H]2O)[C@@H]1O | PRK | 196 | >100 µg/mL
O=c1[nH]c(=O)n([C@H]2C[C@H](O)[C@@H](CO)O2)cc1/C=C/Br | E6SM | G | >80 µg/mL
Nc1ccn(C=C2C[C@H]2CO)c(=O)n1 | HFF |  | 104 µM
Cc1ccc(S(=O)(=O)n2cc(I)c(=O)[nH]c2=O)cc1 | HEL | G | >200 µM

A second listing of 6 rows from above:

Cc1cn([C@H]2O[C@H](CO)[C@@H](N=[N+]=[N-])[C@H]2F)c(=O)nc1N ; cells: PRK ; strain: G ; value: >400 µg/mL
Cc1ccc(S(=O)(=O)n2cc(I)c(=O)[nH]c2=O)cc1 ; cells: HEL ; strain: G ; value: >200 µM
Nc1nc2c(ncn2[C@@H]2C=C[C@H](CO)[C@@H](O)C2)c(=O)[nH]1 ; cells: E6SM ; strain: G ; value: 0.05 µg/mL
CCCCCC#Cc1cn(S(=O)(=O)c2ccc(C)cc2)c(=O)[nH]c1=O ; cells: HEL ; strain: G ; value: >40 µM
Cc1cn([C@@H]2OC[C@H](CO)[C@H]2N=[N+]=[N-])c(=O)[nH]c1=O ; cells: E6SM ; strain: G ; value: >80 µg/mL
COC(=O)[C@H](C)NP(=O)(OCC1C/C1=C/n1cnc2c(NC3CC3)nc(N)nc21)Oc1ccccc1 ; cells: HFF ; value: 2.5 µM